This note sets out measurements from paper PMC12133307, “Structure, kinetics, and mechanism of Pseudomonas putida sulfoquinovose dehydrogenase, the first enzyme in the sulfoglycolytic Entner-Doudoroff pathway” (Biochemical Journal, 2025).

This data set deals with NC(=O)c1ccc[n+]([C@@H]2O[C@H](COP(=O)(O)OP(=O)(O)OC[C@H]3O[C@@H](n4cnc5c(N)ncnc54)[C@H](O)[C@@H]3O)[C@@H](O)[C@H]2O)c1. The experiment in a line: purified protein. Particulars: 5.0 mM SQ, 50 mM tricine pH 8.5, 150 mM NaCl, binary crystal complex by co-crystallization, varied: cofactor.

Regarding “PpSQDH (P. putida SQ dehydrogenase; PpSQ1_00090) (Pseudomonas putida)”, the Km came out at 120 ± 50 µM, the kcat was found to be 58 s⁻¹ and the catalytic efficiency (kcat/Km) was 500000 M⁻¹ s⁻¹.
